Experimental data as given in paper doi:10.1101/2021.05.31.446396v1.

Test system: Nc1ncnc2c1ncn2[C@@H]1O[C@H](COP(=O)(O)OP(=O)(O)OP(=O)(O)O)[C@@H](O)[C@H]1O
Assay: purified protein
Settings: pH 7.5; 37.0 °C

(Mycobacterium tuberculosis H37Rv)
Km: 20 ± 10 µM
